Square brackets hold non-standard residues; d marks the D form. Peptide text beside a SMILES is read from it. N(4-F-Bzl)Gly = O=C(O)CNCc1ccc(F)cc1; Gly(N-2-aminoethyl) = NCCNCC(=O)O; Nspe = C[C@H](NCC(=O)O)c1ccccc1; NhArg = N=C(N)NCCCCNCC(=O)O; Nphe = O=C(O)CNCc1ccccc1; Nlys = NCCCCNCC(=O)O
How the values were obtained:
Format in all cases: cell-based
[1] = tested on: Pseudomonas aeruginosa PA01 (ATCC 15692); settings: for Average selectivity P. aeruginosa: average of selectivity to HaCaT and HepG2, selectivity = toxicity/activity
Description: (§1) Escherichia coli K-12 wild-type strain (W3110/ATCC27325, F^–, λ^–, rpoS(Am), rph-1, Inv(rrnD-rrnE)), Pseudomonas aeruginosa PA01 (ATCC 15692) Staphylococcus aureus (3R7089 strain Oxford/ATCC9144) and Staphylococcus epidermidis (laboratory strain from clinical isolate) were selected for bacteriological studies as representative Gram-negative (E. coli and P. aeruginosa) and Gram-positive (S. aureus and S. epidermidis) species. Bacterial cultures were prepared by streaking bacterial strains onto LB agar plates with an inoculation loop and incubated overnight at 37 °C. A single colony was selected and placed in 5 mL of Iso-sensitest broth (Oxoid, ThermoScientific) and incubated with shaking for 16–18 h at 37 °C to provide liquid cultures for testing.
(§2) MIC values were obtained according to the protocol described by J. M. Andrews et al.[58] and were conducted in 96-well plates (Sarstedt). Bacteria were grown from overnight cultures in Iso-sensitest broth to an A650nm of 0.07 equivalent to a 0.5 MacFarland standard (240 μM BaCl2 in 0.18 M H2SO4). This culture was diluted ten-fold with Iso-sensitest broth before use. Peptoids were initially dissolved in DMSO (5 mM) and diluted further in Iso-sensitest broth to achieve a concentration range of 4–200 μM using 2-fold serial dilutions. 50 μl of inoculum and 50 μl of peptoid solution were added to each test well (final concentration range of 2–100 μM). Experiments were performed in triplicate. A positive control for bacterial growth contained only the inoculum and Iso-sensitest broth. Other controls contained the inoculum and serial dilutions of ampicillin (from 250 μg mL^–1 to 2 μg mL^–1), serial dilutions of DMSO and the inoculum to confirm no inhibitory effect on bacterial growth, and Iso-sensitest broth alone as a sterile control. […] Quantitative data was attained from absorbance values using a Biotek Synergy H4 plate reader.
(§3) Antibacterial MIC determination
(§4) Escherichia coli K-12 wild-type strain (W3110 / ATCC27325, F-, λ-, rpoS(Am), rph-1, Inv(rrnD-rrnE)), Pseudomonas aeruginosa PA01 (ATCC 15692) Staphylococcus aureus (3R7089 strain Oxford / ATCC9144) and Staphylococcus epidermidis (laboratory strain from clinical isolate) were selected for bacteriological studies as representative Gram-negative (E. coli and P. aeruginosa) and Gram-positive (S. aureus and S. epidermidis) species. Bacterial cultures were prepared by streaking bacterial strains onto LB agar plates with an inoculation loop and incubated overnight at 37 °C.
(§5) A single colony was selected and placed in 5 mL of Iso-sensitest broth (Oxoid, ThermoScientific) and incubated with shaking for 16-18 h at 37 °C to provide liquid […]
(§6) MIC values were obtained according to the protocol described by J. M. Andrews et al.1 and were conducted in 96-well plates (Sarstedt). Bacteria were grown from overnight cultures in Iso-sensitest broth to an A650nm of 0.07 equivalent to a 0.5 MacFarland standard (240 μM BaCl2 in 0.18 M H2SO4). This culture was diluted ten-fold with Iso-sensitest broth before use. Peptoids were initially dissolved in DMSO (5 mM) and diluted further in Iso-sensitest broth to achieve a concentration range of 4 – 200 µM using 2-fold serial dilutions. 50 μl of inoculum and 50 μl of peptoid solution were added to each test well (final concentration range of 2 – 100 µM). Experiments were performed in triplicate. A positive control for bacterial growth contained only the inoculum and Iso-sensitest broth. Other controls contained the inoculum and serial dilutions of ampicillin (from 250 µg/mL to 2 µg/mL), serial dilutions of DMSO and the inoculum to confirm no inhibitory effect on bacterial growth, and Iso-sensitest broth alone as a sterile control. […]
(§7) growth after incubation at 37 °C for 16 h with shaking. Quantitative data was attained from absorbance values using a Biotek Synergy H4 plate reader.

[2] = tested on: Staphylococcus aureus (3R7089 strain Oxford/ATCC9144); settings: for Average selectivity S. aureus: average of selectivity to HaCaT and HepG2, selectivity = toxicity/activity
Description: as §1, §2, §3, §4, §5, §6, §7

[3] = tested on: Staphylococcus epidermidis (laboratory strain from clinical isolate); settings: for Average selectivity S. epidermidis: average of selectivity to HaCaT and HepG2, selectivity = toxicity/activity
Description: as §1, §2, §3, §4, §5, §6, §7

| SMILES | Average selectivity P. aeruginosa [1] | Average selectivity S. aureus [2] | Average selectivity S. epidermidis [3] | Selectivity Index HaCaT, P. aeruginosa ([1]; ED50 HaCaT / MIC P. aeruginosa) | Selectivity Index HepG2, P. aeruginosa ([1]; ED50 HepG2 / MIC P. aeruginosa) | Selectivity Index HaCaT, S. aureus ([2]; ED50 HaCaT / MIC S. aureus) | Selectivity Index HepG2, S. aureus ([2]; ED50 HepG2 / MIC S. aureus) | Selectivity Index HaCaT, S. epidermidis ([3]; ED50 HaCaT / MIC S. epidermidis) | Selectivity Index HepG2, S. epidermidis ([3]; ED50 HepG2 / MIC S. epidermidis) |
| --- | --- | --- | --- | --- | --- | --- | --- | --- | --- |
| NCCNCC(=O)N(CC(=O)N(CC(=O)N(CCN)CC(=O)N(CC(=O)N(CC(=O)N(CCN)CC(=O)N(CC(=O)N(CC(=O)N(CCN)CC(=O)N(CC(=O)N(CC(N)=O)Cc1ccccc1)Cc1ccccc1)Cc1ccccc1)Cc1ccccc1)Cc1ccccc1)Cc1ccccc1)Cc1ccccc1)Cc1ccccc1 [Peptoid 7, (NaeNpheNphe)4] (H-[Gly(N-2-aminoethyl)][Nphe][Nphe][Gly(N-2-aminoethyl)][Nphe][Nphe][Gly(N-2-aminoethyl)][Nphe][Nphe][Gly(N-2-aminoethyl)][Nphe][Nphe]-NH2) | > 2 | > 50 | > 17 |  |  |  |  |  |  |
| NCCCCNCC(=O)N(CC(=O)N(CC(=O)N(CCCCN)CC(=O)N(CC(=O)N(CC(=O)N(CCCCN)CC(=O)N(CC(=O)N(CC(N)=O)Cc1ccc(F)cc1)Cc1ccc(F)cc1)Cc1ccc(F)cc1)Cc1ccc(F)cc1)Cc1ccc(F)cc1)Cc1ccc(F)cc1 [Peptoid 23, (NLysNpfbNpfb)3] (H-[Nlys][N(4-F-Bzl)Gly][N(4-F-Bzl)Gly][Nlys][N(4-F-Bzl)Gly][N(4-F-Bzl)Gly][Nlys][N(4-F-Bzl)Gly][N(4-F-Bzl)Gly]-NH2) | > 3 | > 24 | > 24 |  |  |  |  |  |  |
| C[C@@H](c1ccccc1)N(CC(N)=O)C(=O)CN(Cc1ccc(F)cc1)C(=O)CN(CCCCN)C(=O)CN(C(=O)CN(Cc1ccc(F)cc1)C(=O)CN(CCCCN)C(=O)CN(C(=O)CN(Cc1ccc(F)cc1)C(=O)CNCCCCN)[C@@H](C)c1ccccc1)[C@@H](C)c1ccccc1 [Peptoid 27, (NLysNpfbNspe)3] | 2 | 15 | 22 | 2 | 1 | 17 | 12 | 26 | 18 |
| N=C(N)NCCCCNCC(=O)N(CC(=O)N(CC(=O)N(CCCCNC(=N)N)CC(=O)N(CC(=O)N(CC(=O)N(CCCCNC(=N)N)CC(=O)N(CC(=O)N(CC(=O)N(CCCCNC(=N)N)CC(=O)N(CC(=O)N(CC(N)=O)Cc1ccccc1)Cc1ccccc1)Cc1ccccc1)Cc1ccccc1)Cc1ccccc1)Cc1ccccc1)Cc1ccccc1)Cc1ccccc1 [Peptoid 33, (NhArgNpheNphe)4] (H-[NhArg][Nphe][Nphe][NhArg][Nphe][Nphe][NhArg][Nphe][Nphe][NhArg][Nphe][Nphe]-NH2) | > 4 |  | > 50 |  |  |  |  |  |  |
| C[C@@H](c1ccccc1)N(CC(N)=O)C(=O)CN(C(=O)CN(CCCCNC(=N)N)C(=O)CN(C(=O)CN(C(=O)CN(CCCCNC(=N)N)C(=O)CN(C(=O)CN(C(=O)CN(CCCCN)C(=O)CN(C(=O)CN(C(=O)CNCCCCN)[C@@H](C)c1ccccc1)[C@@H](C)c1ccccc1)[C@@H](C)c1ccccc1)[C@@H](C)c1ccccc1)[C@@H](C)c1ccccc1)[C@@H](C)c1ccccc1)[C@@H](C)c1ccccc1 [Peptoid 41, (NLysNspeNspe)2(NhArgNspeNspe)2] (H-[Nlys][Nspe][Nspe][Nlys][Nspe][Nspe][NhArg][Nspe][Nspe][NhArg][Nspe][Nspe]-NH2) | > 3 | > 6 |  |  |  |  |  |  |  |
